Test results reported in publication PMC11748363, “Antimicrobial and Antiproliferative Properties of 2‐Phenyl‐N‐(Pyridin‐2‐yl)acetamides” (Chemical Biology & Drug Design, 2025).

System: Mycobacterium tuberculosis H37Ra
Assay: Antimycobacterial microdilution broth MIC (resazurin), Mtb H37Ra
Format: cell-based
Settings: Related to 1/MIC

Row | SMILES | Relative activity (title series vs previously published compound)
1 | O=C(Cc1ccccc1Cl)Nc1ccc(Cl)cn1 [Compound 14, 2-(2-chlorophenyl)-N-(5-chloropyridin-2-yl)acetamide] | =
2 | COc1ccc(CC(=O)Nc2cccc(Cl)n2)cc1 [Compound 12, 2-(4-methoxyphenyl)-N-(6-chloropyridin-2-yl)acetamide] | =
3 | O=C(Cc1cccc(C(F)(F)F)c1)Nc1ccccn1 [Compound 25] | <
4 | O=C(Cc1ccccc1Cl)Nc1ccccn1 [Compound 13, 2-(2-chlorophenyl)-N-(pyridin-2-yl)acetamide] | >
5 | O=C(Cc1ccccc1Cl)Nc1cccc(Cl)n1 [Compound 15, 2-(2-chlorophenyl)-N-(6-chloropyridin-2-yl)acetamide] | >
6 | COc1cccc(CC(=O)Nc2ccc(Cl)cn2)c1 [Compound 8, 2-(3-methoxyphenyl)-N-(5-chloropyridin-2-yl)acetamide] | >
7 | O=C(Cc1cccc(Cl)c1)Nc1ccc(Cl)cn1 [Compound 17, 2-(3-chlorophenyl)-N-(5-chloropyridin-2-yl)acetamide] | <
8 | O=C(Cc1cccc(Cl)c1)Nc1cccc(Cl)n1 [Compound 18] | =
9 | COc1ccc(CC(=O)Nc2ccccn2)cc1 [Compound 10, 2-(4-methoxyphenyl)-N-(pyridin-2-yl)acetamide] | <
10 | O=C(Cc1ccccc1)Nc1ccc(Cl)cn1 [Compound 2] | >
11 | O=C(Cc1ccc(Cl)cc1)Nc1ccc(Cl)cn1 [Compound 20] | >
12 | COc1cccc(CC(=O)Nc2cccc(Cl)n2)c1 [Compound 9, 2-(3-methoxyphenyl)-N-(6-chloropyridin-2-yl)acetamide] | <
13 | COc1ccc(CC(=O)Nc2ccc(Cl)cn2)cc1 [Compound 11, 2-(4-methoxyphenyl)-N-(5-chloropyridin-2-yl)acetamide] | <
14 | COc1cccc(CC(=O)Nc2ccccn2)c1 [Compound 7, 2-(3-methoxyphenyl)-N-(pyridin-2-yl)acetamide] | <
15 | O=C(Cc1cccc(C(F)(F)F)c1)Nc1ccc(Cl)cn1 [Compound 26] | <
16 | O=C(Cc1ccc(Cl)cc1)Nc1cccc(Cl)n1 [Compound 21] | >
17 | O=C(Cc1ccccc1)Nc1ccccn1 [Compound 1] | >
18 | O=C(Cc1ccccc1)Nc1cccc(Cl)n1 [Compound 3] | >
19 | O=C(Cc1cccc(C(F)(F)F)c1)Nc1cccc(Cl)n1 [Compound 27] | <
20 | O=C(Cc1cccc(Cl)c1)Nc1ccccn1 [Compound 16, 2-(3-chlorophenyl)-N-(pyridin-2-yl)acetamide] | =
21 | COc1ccccc1CC(=O)Nc1ccc(Cl)cn1 [Compound 5] | <
22 | O=C(Cc1ccc(Cl)cc1)Nc1ccccn1 [Compound 19] | >
23 | COc1ccccc1CC(=O)Nc1cccc(Cl)n1 [Compound 6] | =
24 | COc1ccccc1CC(=O)Nc1ccccn1 [Compound 4] | <
